Experimental data as given in PubChem BioAssay AID1117319 (Southern Research Institute, 2015).
Records with an inconclusive call do not appear.

By UniProt entry, the sequences of proteins in these tests, tags left out. Where a name states a change or a piece, a line headed by the entry shows the natural chain unless it says otherwise.
UniProt P69720: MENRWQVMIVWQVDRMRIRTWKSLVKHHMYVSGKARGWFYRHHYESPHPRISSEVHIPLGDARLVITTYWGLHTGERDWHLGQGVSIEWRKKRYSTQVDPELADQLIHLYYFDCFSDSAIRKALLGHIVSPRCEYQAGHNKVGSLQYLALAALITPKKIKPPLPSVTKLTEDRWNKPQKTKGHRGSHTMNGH
UniProt P69721: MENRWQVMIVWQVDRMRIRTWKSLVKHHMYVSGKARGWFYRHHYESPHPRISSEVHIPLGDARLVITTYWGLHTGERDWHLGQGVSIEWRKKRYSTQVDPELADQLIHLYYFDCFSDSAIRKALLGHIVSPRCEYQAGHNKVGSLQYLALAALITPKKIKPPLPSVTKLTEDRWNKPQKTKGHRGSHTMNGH
UniProt P69722: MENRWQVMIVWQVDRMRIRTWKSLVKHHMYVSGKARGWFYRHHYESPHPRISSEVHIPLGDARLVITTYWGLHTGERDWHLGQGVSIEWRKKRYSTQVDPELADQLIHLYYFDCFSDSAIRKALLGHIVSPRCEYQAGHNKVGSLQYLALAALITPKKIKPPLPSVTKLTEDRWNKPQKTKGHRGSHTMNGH
UniProt P69723: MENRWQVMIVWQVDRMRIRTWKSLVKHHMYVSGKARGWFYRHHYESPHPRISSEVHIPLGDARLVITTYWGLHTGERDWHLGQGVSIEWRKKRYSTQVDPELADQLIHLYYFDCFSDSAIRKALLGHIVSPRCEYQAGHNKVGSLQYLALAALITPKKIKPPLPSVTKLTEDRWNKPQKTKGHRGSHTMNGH
UniProt Q9HC16: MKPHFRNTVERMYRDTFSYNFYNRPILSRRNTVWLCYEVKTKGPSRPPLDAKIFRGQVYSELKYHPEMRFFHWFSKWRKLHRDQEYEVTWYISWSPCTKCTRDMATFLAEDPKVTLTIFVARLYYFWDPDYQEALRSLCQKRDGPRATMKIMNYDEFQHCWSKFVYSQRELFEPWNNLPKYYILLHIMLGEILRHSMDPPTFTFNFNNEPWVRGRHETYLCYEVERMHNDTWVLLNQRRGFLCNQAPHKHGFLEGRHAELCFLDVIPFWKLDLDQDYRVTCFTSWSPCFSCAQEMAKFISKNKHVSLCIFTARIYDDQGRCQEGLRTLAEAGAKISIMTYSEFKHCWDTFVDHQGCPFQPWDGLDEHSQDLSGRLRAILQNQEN

Target: Virion infectivity factor (Human immunodeficiency virus type 1 group M subtype B (isolate BH10)) + Virion infectivity factor (Human immunodeficiency virus type 1 group M subtype B (isolate BRU/LAI)) + Virion infectivity factor (Human immunodeficiency virus type 1 group M subtype B (isolate PCV12)) + Virion infectivity factor (Human immunodeficiency virus type 1 group M subtype B (isolate HXB2)) + DNA dC->dU-editing enzyme APOBEC-3G (Homo sapiens) (UniProt P69720+P69721+P69722+P69723+Q9HC16)
Assay: inhibitors of Vif binding to APOBEC3G peptide, primary screen, biochemical, TR-FRET, GST-Vif 1-94, biotin-A3G peptide, dose response retest (AID 1117319);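 also: Vif residues 1-94 fused to GST binding biotinylated APOBEC3G peptide 110-148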

- IC50: 1.37 µM
SMILES: Oc1ccc(/C=N/NC(=S)Nc2cccnc2)c(O)c1O
